Results of unrelated studies side by side (data: NIAID ChemDB).

Shared fields: whole-cell or culture tests; agent: Mycobacterium tuberculosis

MIC bound comes from a single tested concentration. ECn is the concentration giving n% inhibition of infection, replication or growth. A number after MIC or MFC names an inhibition level or a share of isolates. Two numbers with a dash give a range or band. An empty or dashed field is not shown. Percent inhibition refers to the dose given; in toxicity tests it is the harm to the cells. Conditions beyond the fields shown may differ between rows.

SMILES	setting	strain	read by	measure	cells	changes	tested at	result
C[C@]1(COc2ccc(-c3ccc(N4CCN(Cc5ccc(Cl)c(Cl)c5)CC4)cc3)cc2)Cn2cc([N+](=O)[O-])nc2O1	-	H37Rv	-	MIC	-	-	-	0.012 µg/mL
O=C1CC(SC(=S)N2CCCCC2)C(=O)N1c1ccccc1	-	H37Rv	-	MIC	VERO	-	-	2 µg/mL
C[C@]1(COc2ccc3nc(N4CCN(Cc5ccc(OC(F)(F)F)cc5)CC4)sc3c2)Cn2cc([N+](=O)[O-])nc2O1	-	H37Rv	-	MIC	-	-	-	0.2 µg/mL
C1CCN2C[C@H]3C[C@H](CN4CCCC[C@@H]34)[C@H]2C1	-	H37Rv	BACTEC	MIC	-	-	-	≥128 µg/mL
CCN(CC)CCCC(C)Nc1ccnc2cc(Cl)ccc12	-	H37Rv	resazurin	MIC	-	-	-	>20 µg/mL
N/C(COc1cccc(Cl)c1)=N/NC(=O)c1ccncc1	-	ATCC 35822 (isoniazid-resistant)	-	MIC	-	-	-	12.5 µg/mL
C[C@]1(COc2ccc(-c3ccc(N4CCN(Cc5ccc(Cl)cc5)CC4)cc3)cc2)Cn2cc([N+](=O)[O-])nc2O1	-	H37Rv	-	MIC	-	-	-	0.1 µg/mL
CC(C)c1cc2c(O)c(c1)Cc1cc(C(C)C)cc(c1O)Cc1cc(C(C)C)cc(c1O)Cc1cc(C(C)C)cc(c1O)C2	-	H37Rv	BACTEC	MIC bound	-	-	-	>12.5 µg/mL
Nc1ccc(-c2nnc(Nc3ccccc3)s2)cc1	-	H37Rv	BACTEC	inhibition	-	-	6.25 µg/mL	0%
C[C@]1(COc2ccc(N3CCN(Cc4cc5ccc(C(F)(F)F)cc5o4)CC3)cc2)Cn2cc([N+](=O)[O-])nc2O1	-	H37Rv	-	MIC	-	-	-	0.024 µg/mL
CCCCn1c(-c2cc3cc(Br)ccc3oc2=O)cs/c1=N\N=C\c1ccc(O)c(OCC)c1	-	H37Rv	-	MIC	-	-	-	>12.5 µg/mL
NC(=S)c1ccncc1	-	H37Rv (INH-resistant)	-	MIC	-	-	-	256 µM
O=C(O)c1cnc2ccccc2c1	-	H37Rv	-	inhibition	-	-	6.25 µg/mL	74%
CN[C@@H]1[C@H](O[C@H]2[C@H](O[C@H]3[C@H](O)[C@@H](O)[C@H](N=C(N)N)[C@@H](O)[C@@H]3N=C(N)N)O[C@@H](C)[C@]2(O)C=O)O[C@@H](CO)[C@H](O)[C@H]1O	-	N128	-	MIC	-	-	-	≥512 µg/mL
N/C(COc1ccc([N+](=O)[O-])cc1)=N/NC(=O)c1ccncc1	-	ATCC 35820 (streptomycin-resistant)	-	MIC	-	-	-	3.12 µg/mL
COC(=O)Cc1ccnc2ccccc12	-	H37Rv	-	inhibition	-	-	6.25 µg/mL	0%
CCCCc1ccc(NC(=O)NNC(=O)c2ccncc2)cc1	14 d	My 331/88	broth dilution	MIC100	-	-	-	4 µM
C=C1C(=O)O[C@@H]2C[C@H](C)[C@]3(OC(C)=O)CCC(=O)[C@@]3(C)C[C@H]12	-	H37Rv	-	MIC	-	-	-	>128 µg/mL
C/C(=N\NC(=O)c1ccncc1)c1ccc(Cl)cc1Cl	-	6 PI	-	MIC	-	-	-	>20 µg/mL
C[C@H]1COc2c(N3CCN(C)CC3)c(F)cc3c(=O)c(C(=O)O)cn1c23	-	250 isolates	-	Mean MIC	-	-	-	0.579 µg/mL
CCn1c(-c2cc3ccccc3oc2=O)cs/c1=N\N=C\c1cc(Br)ccc1O	-	H37Rv	-	EC50	-	-	-	<12.5 µg/mL
C=C1C(=O)OC2C/C(C)=C/CC/C(C)=C/[C@H](O)[C@H]12	-	H37Rv	-	MIC	-	-	-	16 µg/mL
CO/C(=N\N=C\c1cccc(Cl)c1)c1ccncc1	-	H37Rv	-	MIC	-	-	-	>20 µg/mL
C=C1C(=O)O[C@@H]2C[C@@]3(C)C=CC(=O)C(=C)[C@@H]3C[C@H]12	-	H37Rv	-	MIC	-	-	-	16 µg/mL
CC(C)CN1C(=O)C(=O)c2cccc(-c3ccccc3)c21	-	H37Ra	-	MIC	-	-	-	≤20 µg/mL
CN(C)CCCN1c2ccc3ccccc3c2Sc2cccc(Cl)c21	-	H37Rv	BACTEC	MIC bound	-	-	-	≤12.5 µg/mL
CC1COc2c(N3CCN(C(N)=NC#N)CC3)c(F)cc3c(=O)c(C(=O)O)cn1c23	-	ATCC 35827	broth dilution	MIC	-	-	-	0.625 µg/mL
CSc1nc2c(=O)[nH][nH]c(=O)c2n1Cc1ccccc1	-	H37Rv	BACTEC	inhibition	-	-	12.5 µg/mL	0%
NNC(=O)c1ccncc1	-	NTB1	resazurin	MIC	-	dprE1 G387S	-	0.025 µg/mL
CCCCCCN1C(=O)C(=O)c2cccc(-c3ccccc3)c21	-	H37Rv	-	MIC	-	-	-	≤20 µg/mL
CCN(CC)CCC(=O)O[C@H]1CC[C@H](CC(C)[C@H]2CC(=O)C(C)C=C(C)[C@H](OC(=O)CCN(CC)CC)C(OC)C(=O)[C@H](C)CC(C)/C=C/C=C/C=C(\C)C(OC)CC3CC[C@H](C)[C@](O)(O3)C(=O)C(=O)N3CCCCC3C(=O)O2)CC1OC	-	H37Rv	resazurin	inhibition	-	-	6.25 µg/mL	7%
COc1ccc2nc3cc(Cl)ccc3c(Nc3cc(CN4CCCC4)c(O)c(CN4CCCC4)c3)c2n1	-	81.10	resazurin	MIC	-	ethA D1109-37	-	5–10 µg/mL
O=[N+]([O-])c1cn2c(n1)O[C@@H](COc1ccc(N3CCC(OCc4ccc(OC(F)(F)F)cc4)CC3)cc1)C2	-	H37Rv	-	MIC	-	-	-	0.024 µg/mL
O=C(NNC(=O)c1ccncc1)Nc1ccc(C(F)(F)F)cc1	14 d	My 331/88	broth dilution	MIC100	-	-	-	62.5 µM
CC(C)CC1NC(=O)C(CC(C)C)N(CO)C1=O	-	H37Rv	BACTEC	MIC bound	-	-	-	>12.5 µg/mL
CO[C@H]1/C=C/O[C@@]2(C)Oc3c(C)c(O)c4c(=O)c(c5oc6cc(N7CCN(CC(C)C)CC7)cc(=O)c6nc5c4c3=C2O)NC(=O)/C(C)=C\C=C\[C@H](C)[C@H](O)[C@@H](C)[C@@H](O)[C@@H](C)[C@H](OC(C)=O)[C@@H]1C	inside macrophages	Watanabe	-	inhibition	-	-	1 µg/mL	8.3%
CC(C)CCC[C@@H](C)CCC[C@@H](C)CCCC(C)(O)C(O)CO	-	H37Rv	-	MIC	-	-	-	16 µg/mL
Cc1sc(N=C(Nc2ccccc2)Nc2ccccc2)nc1-c1ccccc1	-	H37Rv	resazurin	MIC bound	-	-	-	<6.25 µg/mL
C[C@]1(COc2ccc(N3CCC(Oc4ccc(OC(F)(F)F)cc4)CC3)nc2)Cn2cc([N+](=O)[O-])nc2O1	-	H37Rv	-	MIC	-	-	-	0.012 µg/mL
Cc1ccc(NC(=O)N2CCCCC2)cc1[N+](=O)[O-]	-	H37Rv	BACTEC	MIC bound	-	-	-	>12.5 µg/mL
COC(=O)c1ccc2ccccc2n1	-	H37Rv	-	MIC	-	-	-	>6.25 µg/mL
CC(C)=CCC/C(C)=C/CO	-	H37Rv	-	MIC	-	-	-	64 µg/mL
CN(Cc1cc2cc(Cl)ccc2o1)C1CCN(c2ccc(OC[C@@]3(C)Cn4cc([N+](=O)[O-])nc4O3)cc2)CC1	-	H37Rv	-	MIC	-	-	-	0.024 µg/mL
COc1cc2ccc1OCc1cccc(n1)COc1ccc(cc1OC)C=NCCNCCN=C2	-	H37Rv	BACTEC	inhibition	-	-	12.5 µg/mL	99%
Cc1ccc(C(N)=S)cc1	-	H37Rv	-	MIC	-	-	-	512 µM
O=c1c2ccccc2c(Cc2ccccc2)nn1C1CCCCCC1	-	H37Rv	BACTEC	inhibition	-	-	0.5 µM	0%
COC(=O)Cc1cc(C2C3CC4CC(C3)CC2C4)nc2ccccc12	-	H37Rv	-	MIC	-	-	-	>6.25 µg/mL
C[C@]1(COc2ccc(N3CCN(C/C=C/c4c(Cl)cc(Cl)cc4Cl)CC3)cc2)Cn2cc([N+](=O)[O-])nc2O1	-	H37Rv	-	MIC	-	-	-	0.006 µg/mL
CCCCCc1ccc(NC(=O)NNC(=O)c2ccncc2)cc1	14 d	My 331/88	broth dilution	MIC100	-	-	-	32 µM
CCCCCCCCCN1C(=O)C(=O)c2cccc(-c3ccccc3)c21	-	H37Ra	-	MIC	-	-	-	≤20 µg/mL
CC(=O)Oc1ccccc1C(=O)Nc1ncc([N+](=O)[O-])s1	-	Haarlem spoligotype 50	visual reading	MIC	-	-	-	12 µg/mL
C=CCn1c(-c2cc3cc(Br)ccc3oc2=O)cs/c1=N\N=C\c1cc(Br)ccc1O	-	H37Rv	-	inhibition	-	-	12.5 µg/mL	91%
OC(CCN1CCCCC1)(c1cccs1)C(O)(CCN1CCCCC1)c1cccs1	-	H37Rv	-	MIC bound	-	-	-	>6.25 µg/mL
C[C@@H]1CC[C@]2(C(=O)O)CC[C@]3(C)C(=CC[C@@H]4[C@@]5(C)C[C@@H](O)[C@@H](O)C(C)(C)[C@@H]5CC[C@]43C)[C@@H]2[C@]1(C)O	-	H37Rv	-	MIC	-	-	-	128 µM
C[C@]1(COc2ccc(-c3ccc(N4CCN(Cc5ccc(C(F)(F)F)cc5)CC4)cc3)cc2)Cn2cc([N+](=O)[O-])nc2O1	-	H37Rv	-	MIC	-	-	-	0.024 µg/mL
CC1COc2c(N3CCN(C)CC3)c(F)cc3c(=O)c(C(=O)O)cn1c23	-	44 isolates (resistant)	-	MIC50	-	-	-	1 µg/mL
CC(C)[C@@H](C)/C=C/[C@@H](C)[C@H]1CC[C@H]2C3=CC=C4C[C@@H](O)CC[C@]4(C)[C@H]3CC[C@]12C	-	H37Rv	-	MIC	-	-	-	>128 µg/mL
C/C(=N\NC(=O)c1ccncc1)c1ccccc1F	-	16PI	-	MIC	-	-	-	>20 µg/mL
S=c1ssc2ccccc12	-	H37Rv	BACTEC	MIC bound	-	-	-	>12.5 µg/mL
NC(=S)c1ccccc1	-	H37Rv (drug-susceptible)	-	MIC	-	-	-	1024 µM
CO[C@H]1/C=C/O[C@@]2(C)Oc3c(C)c(O)c4c(O)c(c(/C=N/N5CCN(C)CC5)c(O)c4c3C2=O)NC(=O)/C(C)=C\C=C\[C@H](C)[C@H](O)[C@@H](C)[C@@H](O)[C@@H](C)[C@H](OC(C)=O)[C@@H]1C	-	H37Rv (viomycin-resistant)	-	MIC	-	-	-	2.5 µg/mL
N/C(COc1ccc(Cl)cc1)=N/NC(=O)c1ccncc1	-	H37Rv	-	MIC	-	-	-	3.12 µg/mL
C=CCn1c(-c2cc3cc(Br)ccc3oc2=O)cs/c1=N\N=C\c1ccc(Cl)cc1	-	H37Rv	-	inhibition	-	-	12.5 µg/mL	71%
O=C1C(=O)N(CCN2CCN(Cc3ccccc3)CC2)c2c1cccc2C1CCCCC1	-	H37Rv	-	MIC	-	-	-	≤20 µg/mL
CO[C@H]1/C=C/O[C@@]2(C)Oc3c(C)c(O)c4c(O)c(cc(O)c4c3C2=O)NC(=O)/C(C)=C\C=C\[C@H](C)[C@H](O)[C@@H](C)[C@@H](O)[C@@H](C)[C@H](OC(C)=O)[C@@H]1C	-	BCG	-	MIC	-	-	-	0.005 µg/mL
CC1=C2[C@H]3OC(=O)[C@@H](C)[C@@H]3CC[C@@]2(C)C=CC1=O	-	H37Rv	-	MIC	-	-	-	>128 µg/mL
Cc1cc(N2C(=O)CCSC2=S)ccc1Cl	-	H37Rv	BACTEC	inhibition	-	-	12.5 µg/mL	0%
CO/C(=N\N=C\c1cc(OC)ccc1OC)c1ccncc1	-	16PI	-	MIC	-	-	-	>20 µg/mL
CCCCCCCCc1ccc(NC(=O)NNC(=O)c2ccncc2)cc1	21 d	My 331/88	broth dilution	MIC100	-	-	-	2 µM
O=C(O)c1nc2ccccc2[nH]c1=O	-	H37Rv	BACTEC	inhibition	-	-	12.5 µg/mL	12%
CCNc1nnc(-c2ccc(N)cc2)s1	-	H37Rv	BACTEC	inhibition	-	-	6.25 µg/mL	34%
CCOc1cc(/C=N/N=c2\scc(-c3cc4ccccc4oc3=O)n2C2CCCCC2)ccc1O	-	H37Rv	-	MIC	-	-	-	<12.5 µg/mL
Cc1cccc(/C=N/Nc2ccccn2)n1	-	H37Rv	-	MIC	VERO	-	-	6.25 µg/mL
O=C(NNC(=O)c1ccncc1)Nc1ccc(Br)c(F)c1	21 d	My 331/88	broth dilution	MIC100	-	-	-	62.5 µM
O=C(Nc1ccccc1)SCCSC(=S)N1CCCC1	-	H37Rv	BACTEC	inhibition	-	-	12.5 µg/mL	57%
O=C(O)c1cc(C2C3CC4CC(C3)CC2C4)c2ccccc2n1	-	H37Rv	-	MIC	-	-	-	>6.25 µg/mL
Cn1c(=O)c2nc3c(=O)n(C)c(=O)n(CC(N)=O)c3nc2n(C)c1=O	-	H37Rv	BACTEC	inhibition	-	-	12.5 µg/mL	0%
CCCNc1nnc(-c2ccc(NC(=S)Nc3ccccc3)cc2)s1	-	H37Rv	BACTEC	inhibition	-	-	6.25 µg/mL	6%
C/C(=N\Nc1cc(C)c2cc(C)ccc2n1)c1ccccn1	-	H37Rv	BACTEC	MIC bound	-	-	-	≤12.5 µg/mL
COC(=O)c1cnc2ccccc2c1	-	H37Rv	-	inhibition	-	-	6.25 µg/mL	0%
NC(=S)c1ccccn1	-	H37Rv (INH-resistant)	-	MIC	-	-	-	256 µM
COC(=O)c1cc(C2CCCCC2)nc2c(C3CCCCC3)cccc12	-	H37Rv	-	inhibition	-	-	6.25 µg/mL	44%
CC(=O)/C(N=Nc1ccc(-c2nnc(Nc3ccccc3C)s2)cc1)=C(\C)O	-	H37Rv	BACTEC	inhibition	-	-	6.25 µg/mL	5%
COc1cc(O)c2c(O)c3c(c4c2c1C1(C4)C(C)=CCCC1(C)C)C(O)C1(O)CC(=O)C(C(N)=O)=C(O)C1(O)C3=O	-	H37Rv	BACTEC	MIC bound	-	-	-	>12.8 µg/mL
C[C@@H]1CC[C@]2(C(=O)O)CC[C@]3(C)C(=CC[C@@H]4[C@@]5(C)CC[C@H](O)C(C)(C)[C@@H]5CC[C@]43C)[C@@H]2[C@]1(C)O	-	H37Rv	-	MIC	-	-	-	64 µM